# Reference: ChEMBL document CHEMBL1152450 (J Med Chem, 2009)
# Test: Inhibition of SARS coronavirus PLpro residues 1541-1855 expressed in Escherichia coli
# Parameters: species or system Severe acute respiratory syndrome-related coronavirus
row,SMILES,IC50 [µM]
1,C[C@@H](NC(=O)c1ccc(N)cc1)c1cccc2ccccc12,24.8
2,COc1cccc(C(=O)N[C@H](C)c2ccc3ccccc3c2)c1,13.5
3,COc1ccccc1C(=O)N[C@H](C)c1ccc2ccccc2c1,90
